Tested on: Intracellular pyrimidine nucleotide (pyNTP) levels
Test: Intracellular pyrimidine nucleotide quantitation by HPLC in CMV-infected HUVEC
Assay type: cell-based, human
Settings: CMV VHL/E-infected HUVEC, 4 days; A771726 and/or 200 µM uridine

O=c1ccn([C@@H]2O[C@H](CO)[C@@H](O)[C@H]2O)c(=O)[nH]1 [uridine alone, uridine]
Intracellular pyNTP levels: increased pyNTP levels

Source: patent EP1169036B1, “ANTI-VIRAL USES OF LEFLUNOMIDE PRODUCTS” (priority 1998, dated 1999)
